According to patent US20200262877A1, “ION CHANNEL-BINDING PEPTIDES AND METHODS OF USE THEREOF” (priority 2017, published 2020):

T1: hERG, Q12809
T1 chain: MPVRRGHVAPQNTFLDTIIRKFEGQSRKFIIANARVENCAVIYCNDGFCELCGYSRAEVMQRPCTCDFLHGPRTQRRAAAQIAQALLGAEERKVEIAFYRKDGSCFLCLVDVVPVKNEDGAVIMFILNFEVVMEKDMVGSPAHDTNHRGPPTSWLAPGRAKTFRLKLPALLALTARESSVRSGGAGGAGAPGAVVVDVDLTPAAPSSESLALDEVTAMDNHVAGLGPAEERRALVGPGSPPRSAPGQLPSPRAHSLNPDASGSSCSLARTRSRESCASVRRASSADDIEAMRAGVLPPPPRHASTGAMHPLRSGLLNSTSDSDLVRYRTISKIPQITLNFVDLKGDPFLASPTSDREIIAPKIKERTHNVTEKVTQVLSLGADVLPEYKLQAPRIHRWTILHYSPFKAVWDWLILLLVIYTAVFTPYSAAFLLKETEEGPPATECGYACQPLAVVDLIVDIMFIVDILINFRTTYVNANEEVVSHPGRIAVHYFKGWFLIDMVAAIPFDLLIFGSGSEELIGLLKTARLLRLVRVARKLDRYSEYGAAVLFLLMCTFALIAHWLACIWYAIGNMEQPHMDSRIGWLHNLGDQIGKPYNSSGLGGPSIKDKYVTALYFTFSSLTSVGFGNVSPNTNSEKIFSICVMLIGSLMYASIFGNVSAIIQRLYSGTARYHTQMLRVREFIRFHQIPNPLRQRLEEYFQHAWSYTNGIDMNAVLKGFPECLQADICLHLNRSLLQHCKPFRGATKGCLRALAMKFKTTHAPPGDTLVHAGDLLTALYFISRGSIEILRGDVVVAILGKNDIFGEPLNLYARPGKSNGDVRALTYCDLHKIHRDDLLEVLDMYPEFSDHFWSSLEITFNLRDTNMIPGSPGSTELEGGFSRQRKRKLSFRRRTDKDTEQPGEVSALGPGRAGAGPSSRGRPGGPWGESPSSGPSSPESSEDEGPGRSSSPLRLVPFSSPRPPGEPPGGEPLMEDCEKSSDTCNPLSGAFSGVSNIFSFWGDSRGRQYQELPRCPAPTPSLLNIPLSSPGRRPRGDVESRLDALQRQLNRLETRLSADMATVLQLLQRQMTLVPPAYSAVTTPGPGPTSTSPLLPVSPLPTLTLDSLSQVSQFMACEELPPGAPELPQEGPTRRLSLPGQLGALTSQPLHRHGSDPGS


Columns and labels:
Experiment in all cases: cell-based or functional assay
[1] = target: 5HT3a
[2] = target: GABA
[3] = target: Kir2.1
[4] = target: Kv1.2
[5] = target: Kv1.3 potassium channel (human KCNA3 gene) (human), P22001
[6] = target: Kv1.5 potassium channel (human KCNA5 gene) (human), P22460
[7] = target: Nav1.3 sodium channel (human SCN3A gene) (human), Q9NY46
[8] = target: Nav1.4 sodium channel (human SCN4A gene) (human), P35499
[9] = target: Nav1.5 cardiac sodium channel (human SCN5A gene) (human), Q14524
[10] = target: Nav1.7 sodium channel (human SCN9A gene) (human), Q15858
[11] = target: T1, hERG, Q12809
[12] = target: Cav2.2
[13] = target: Kv1.1
[14] = target: Kv1.3
[15] = target: Kv2.1
[16] = target: Nav1.5
[17] = target: Nav1.7
[18] = target: TRPV1
[19] = target: α3β4 nicotinic receptor
[20] = target: Cav2.1
[21] = target: NR2A
[22] = target: NR2B
[23] = target: TRPA1
[24] = target: α4β2 nicotinic receptor

Binder | % activity at 0.2 µM [1] [%] | % activity at 0.2 µM [2] [%] | % activity at 0.2 µM [3] [%] | % activity at 0.2 µM [4] [%] | % activity at 20 µM [11] [%] | % activity at 20 µM [1] [%] | % activity at 0.2 µM [12] [%] | % activity at 0.2 µM [13] [%] | % activity at 20 µM [13] [%] | % activity at 0.2 µM [14] [%] | % activity at 20 µM [14] [%] | % activity at 0.2 µM [15] [%] | % activity at 20 µM (TP1) [16] [%] | % activity at 20 µM (TP2) [16] [%] | % activity at 0.2 µM (TP1) [17] [%] | % activity at 0.2 µM (TP2) [17] [%] | % activity at 20 µM [18] [%] | % activity at 20 µM [4] [%] | % activity at 20 µM [15] [%] | % activity at 0.2 µM (TP1) [16] [%] | also measured
GSQVQTNVKCQGGSCASVCRREIGVAAGKCINGKCVCYRN (modifications not checked) [SEQ ID NO: 10] | 90 | 129 | 100 | 135 | 80 | – | – | – | – | – | – | – | – | – | – | – | – | – | – | – | IC50 of current inhibition, TP1 [5]: > 1000 nM; IC50 of current inhibition, TP6 [5]: > 1000 nM; IC50 of current inhibition, TP1 [6]: > 1000 nM; IC50 of current inhibition, TP6 [6]: > 1000 nM; IC50 of current inhibition, TP1 [7]: > 1000 nM; IC50 of current inhibition, TP2 [7]: > 1000 nM; IC50 of current inhibition, TP1 [8]: > 1000 nM; IC50 of current inhibition, TP2 [8]: > 1000 nM; IC50 of current inhibition, TP1 [9]: > 1000 nM; IC50 of current inhibition, TP2 [9]: > 1000 nM; IC50 of current inhibition, TP1 [10]: > 1000 nM; IC50 of current inhibition, TP2 [10]: > 1000 nM
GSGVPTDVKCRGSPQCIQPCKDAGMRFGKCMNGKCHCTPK (modifications not checked) [SEQ ID NO: 39] | 67 | 111 | – | – | – | 55 | 117 | 37 | 21 | 7 | 1 | 118 | 111 | 114 | 42 | 39 | 83 | – | – | – | –
GSECLEIFKACNPSNDQCCKSSKLVCSRKTRWCKYQIG (modifications not checked) [SEQ ID NO: 31] | 75 | – | – | 128 | 68 | 84 | – | – | – | – | – | 111 | – | – | – | – | 71 | 45 | 111 | 87 | % activity at 0.2 µM (TP2) [16]: 84%; % activity at 20 µM (TP1) [17]: -2%; % activity at 20 µM (TP2) [17]: -5%; % activity at 20 µM [19]: 90%
GSAVCNLKRCQLSCRSLGLLGKCIGDKCECVKHG (modifications not checked) [SEQ ID NO: 15] | 86 | 122 | 107 | 77 | 67 | 74 | 105 | 69 | 72 | 86 | 90 | 91 | 78 | 79 | 91 | 97 | 99 | 76 | 88 | 90 | % activity at 0.2 µM [20]: 106%; % activity at 20 µM [20]: 86%; % activity at 20 µM [12]: 106%; % activity at 20 µM [2]: 97%; % activity at 20 µM [3]: 88%; % activity at 0.2 µM [21]: 97%; % activity at 20 µM [21]: 76%; % activity at 0.2 µM [22]: 103%; % activity at 20 µM [22]: 88%; % activity at 0.2 µM (TP2) [16]: 91%; % activity at 20 µM (TP1) [17]: 75%; % activity at 20 µM (TP2) [17]: 58%; % activity at 0.2 µM [23]: 114%; % activity at 20 µM [23]: 76%; % activity at 0.2 µM [18]: 124%; % activity at 0.2 µM [11]: 79%; % activity at 0.2 µM [19]: 91%; % activity at 20 µM [19]: 86%; % activity at 0.2 µM [24]: 71%; % activity at 20 µM [24]: 95%
GSQFCGTNGKPCVNGQCCGALRCVVTYHYADGVCLKMNP (modifications not checked) [SEQ ID NO: 16] | 114 | 102 | 98 | 78 | 71 | 103 | 124 | 84 | 67 | 92 | 92 | 114 | 93 | 93 | 86 | 91 | 88 | 61 | 98 | 107 | % activity at 0.2 µM [20]: 113%; % activity at 20 µM [20]: 92%; % activity at 20 µM [12]: 104%; % activity at 20 µM [2]: 109%; % activity at 20 µM [3]: 92%; % activity at 0.2 µM [21]: 101%; % activity at 20 µM [21]: 95%; % activity at 0.2 µM [22]: 88%; % activity at 20 µM [22]: 91%; % activity at 0.2 µM (TP2) [16]: 104%; % activity at 20 µM (TP1) [17]: 66%; % activity at 20 µM (TP2) [17]: 43%; % activity at 0.2 µM [23]: 99%; % activity at 20 µM [23]: 116%; % activity at 0.2 µM [18]: 107%; % activity at 0.2 µM [11]: 74%; % activity at 0.2 µM [19]: 100%; % activity at 20 µM [19]: 95%; % activity at 0.2 µM [24]: 83%; % activity at 20 µM [24]: 72%
